Each molecule was assayed on HSV-1 (assay: cytopathic effects (CPE) assay, antiviral activity against HSV-1 in Hep-2 cells). Conditions: selectivity index (TC50/IC50).
Format: cell-based, Herpes Simplex Virus 1
Procedure: The antiviral activities against HSV-1 were evaluated by a cytopathic effects (CPE) assay. Hep-2 monolayer cells were cultured with trypsin enzyme-digesting technique and transferred to 96-well plates. The HSV-1 virus was seeded in Hep-2 cells in 96-well plates, with 2% RPMI-1640 medium, and incubated at 37° C., 5% CO2. After more than 90% lesions, the virus-infected cells were repeatedly frozen and thawed 3 times, centrifuged, quantitative packed and stored at −80° C. Each tested compound was dissolved in 10 μl DMSO to make a homogeneous solution and the solution was diluted 10 times by half-and-half dilution with 2% RPMI-1640 medium. The gradient solution was added to the infected cells incubated in 96-well plates, Ribavirin was used as positive control. Normal cells were used as blank control. Infected cells were used as negative control. All samples were incubated at 37° C., 5% CO2. Pathological changes were observed once every hour, for 24 h. After 90% lesions in negative control, 1% neutral red was added after removal of liquid in 96-well plates. The OD value was determined at 540 nm. IC50 values of tested compounds were calculated by Reed-Muench methods.

Compound	SI
C=C(C)[C@@H]1CC[C@](C)(/C=C/c2ccc3c(c2O)[C@@](O)(c2ccccc2)[C@H](OC)C(=O)N3)O1	955
CO[C@@H]1C(=O)Nc2ccc(/C=C/[C@]3(C)CC[C@H](O)[C@@H](C)C3)c(O)c2[C@@]1(O)c1ccccc1	179
NC(=O)c1ncn([C@@H]2O[C@H](CO)[C@@H](O)[C@H]2O)n1 [Ribavirin, reference compound]	>128

Source: patent publication US10639303B2, “Alkaloids and their preparation and application as anti-HSV-1 agents” (OCEAN UNIVERSITY OF CHINA, priority 2015, dated 2020)
